System: M. fortuitum B
Assay: MIC by micro broth dilution method in Mueller-Hinton broth (NCCLS)

CCOC1(OCC)CCN(c2nc(=O)c3cc([N+](=O)[O-])cc([N+](=O)[O-])c3s2)CC1
MIC M.fortuitum: 0,08 µg/ml

Source: patent EP2181998B1, “New benzothiazinone derivative and its use as antibacterial agent” (priority 2006, dated 2007)
